ChEMBL document CHEMBL3627703, “Synthetic, structural mimetics of the β-hairpin flap of HIV-1 protease inhibit enzyme function” (Bioorg Med Chem, 2015)
Calls of active or inactive are those of the source. The rule behind the calls is not given here.

Molecular target: Protease (Human immunodeficiency virus 1) (UniProt Q9YQ12)
Experiment: Competitive inhibition of recombinant HIV-1 protease expressed in Escherichia coli using Arg-Glu (EDANS)-Ser-Gln-Asn-Tyr-Pro-Ile-Val-Gln Lys(DABCYL)-Arg as substrate up to 60 uM by Michalies-Menten analysis

## CCCCCCCCCCNC(=O)CN1C(=O)[C@@H](CC(C)C)N=C(C)c2ccc(C(=O)O)cc21
  inhibition: Active
